Source: USRE40033E1, “Process for preparing 2-methyl-thieno-benzodiazepine” (Eli Lilly and Company, priority 1991, dated 2008)

Amino acid sequences for entries named in this document (tags omitted).
UniProt P14842, whole entry: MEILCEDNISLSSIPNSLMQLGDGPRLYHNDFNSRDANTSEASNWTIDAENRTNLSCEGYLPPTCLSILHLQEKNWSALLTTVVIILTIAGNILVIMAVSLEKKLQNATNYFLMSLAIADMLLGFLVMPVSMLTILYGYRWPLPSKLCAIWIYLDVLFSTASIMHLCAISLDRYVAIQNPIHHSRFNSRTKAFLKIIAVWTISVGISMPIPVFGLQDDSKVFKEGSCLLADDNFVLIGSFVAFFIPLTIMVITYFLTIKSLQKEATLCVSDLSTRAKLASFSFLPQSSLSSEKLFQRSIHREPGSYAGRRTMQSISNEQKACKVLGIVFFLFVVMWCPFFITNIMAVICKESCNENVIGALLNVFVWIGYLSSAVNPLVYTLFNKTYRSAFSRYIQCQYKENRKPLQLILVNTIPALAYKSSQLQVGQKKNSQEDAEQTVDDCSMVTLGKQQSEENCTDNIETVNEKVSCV

Target: 5-HT-2 receptor (Rattus norvegicus, UniProt P14842)
Details: rat frontal cortex

Q: With Cc1cc2c(s1)Nc1ccccc1N=C2N1CCN(C)CC1 as the compound, how does the “concentration displacing H-spiperone at the 5-HT-2 receptor” value read?
A: The value was “low nanomolar concentrations”.
